PubChem BioAssay AID1259414 | Drosophila RNAi Screening Center – 2018
Assay: 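Host factors increasing or decreasing Wolbachia levels in cultured fly cells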 (primary screen). System: Drosophila JW18 cells infected with Wolbachia. Reagents: long dsRNA against Drosophila genes, 0.25 µg dsRNA per well of a 384-well plate. Duration: 5 days. Challenge: cells persistently infected with Wolbachia before knock-down; no added drug. Measured: 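Automated imaging of bacterial rRNA staining divided by host cell count, reported as plate-normalised robust z-score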. Scale: Wolbachia per cell robust z: higher = more Wolbachia per host cell than the plate typical. Rule for the call: 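Active if absolute robust z reaches 1.5 in two or more of three replicates, leaving out multi- or no-target dsRNAs, genes unexpressed in JW18 and A1 wells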.
The screen tested about 24,000 reagents; shown is a random part of those with a known target gene and a result. Over the whole deposit, about 1,210 (5%) got an active call. 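Inactive calls also include excluded dsRNAs with several or no targets, genes unexpressed in JW18, and well A1, regardless of score.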 Reagents against one gene are numbered here. A plus sign joins genes that one reagent is predicted to hit. No sequences are given here.

target gene | reagent no. | Wolbachia per cell robust z, rep 1 | Wolbachia per cell robust z, rep 2 | Wolbachia per cell robust z, rep 3 | activity call
Prosalpha6 | 1 | 2.7 | 2.31 | 2.09 | active
Csgalnact | 1 | -0.648 | -0.186 | -0.0705 | inactive
CG15260 | 1 | -0.608 | -0.246 | -0.532 | inactive
CG17770 + Acam | 1 | 0.317 | -1.19 | -4.75 | inactive
CG17770 + Acam | 2 | 0.167 | 0.274 | 0.0261 | inactive
CG17770 + Acam | 3 | 1.19 | -9.26 | -0.0127 | inactive
CG17770 + Acam | 4 | 0.244 | 0.509 | -0.923 | inactive
kud | 1 | -0.661 | -1.64 | -1.38 | inactive
Cpsf73 | 1 | -4.08 | 1.68 | -0.0784 | inactive
Cpsf73 | 2 | 0.516 | 1.36 | 0.401 | inactive
CG31102 | 1 | -1.67 | -0.0972 | 0.0434 | inactive
CG31102 | 2 | 1.08 | 1.25 | 2.15 | inactive
Ance-5 | 1 | 0.749 | -0.0236 | -2.56 | inactive
Ance-5 | 2 | 0.183 | -0.739 | 0.0156 | inactive
Syngr | 1 | -1.58 | 0.143 | -0.63 | inactive
CG2291 | 1 | 0.0609 | 1.03 | -1.31 | inactive
psidin | 1 | 0.618 | 0.971 | 1.04 | inactive
CG10587 | 1 | 1.11 | -0.0335 | 1.29 | inactive
CG40198 | 1 | -0.924 | -0.581 | -1.14 | inactive
CG2839 | 1 | -1.07 | 0.0139 | -3.24 | inactive
CG2839 | 2 | 1.4 | 0.591 | 1.07 | inactive
CG44000 + CG33995 + CG44001 | 1 | 1.01 | -0.397 | -1.21 | inactive
HemK1 | 1 | -5.99 | -0.0984 | -0.0267 | inactive
Cog4 | 1 | 1.05 | 0.356 | 1.41 | inactive
mam | 1 | -0.599 | -0.246 | -0.416 | inactive
mam | 2 | 0.403 | 0.634 | 1.29 | inactive
mam | 3 | -3.33 | 0.359 | 0.25 | inactive
CG14419 | 1 | -4.77 | 0.0367 | 0.256 | inactive
CG14419 | 2 | -1.36 | -0.506 | 0.676 | inactive
CG8155 | 1 | 1.11 | 0.286 | -0.697 | inactive
CG8155 | 2 | -1.47 | -0.559 | -0.953 | inactive
CG8155 | 3 | -3.8 | -1.67 | -2.59 | active
CG17047 | 1 | 0.293 | -0.405 | 0.956 | inactive
CG7130 | 1 | 0.564 | -0.00158 | -1.05 | inactive
Setd3 | 1 | -0.239 | -1.2 | 0.293 | inactive
Setd3 | 2 | 0.478 | -4.85 | 0.565 | inactive
Ctf4 | 1 | -1.27 | 0.185 | -0.43 | inactive
CG7328 | 1 | -0.782 | -0.236 | -7.16 | inactive

Active calls, of those listed so far:
target gene | reagent no. | Wolbachia per cell robust z, rep 1 | Wolbachia per cell robust z, rep 2 | Wolbachia per cell robust z, rep 3 | activity call
Prosalpha6 | 1 | 2.7 | 2.31 | 2.09 | active
CG8155 | 3 | -3.8 | -1.67 | -2.59 | active

Further records:
target gene | reagent no. | Wolbachia per cell robust z, rep 1 | Wolbachia per cell robust z, rep 2 | Wolbachia per cell robust z, rep 3 | activity call
CG31141 | 1 | 0.011 | -0.858 | -3.22 | inactive
CG31141 | 2 | -0.372 | 0.769 | 0.949 | inactive
CG6299 + CG6294 | 1 | -2.86 | -0.0037 | 0.846 | inactive
CG6299 + CG6294 | 2 | 0.437 | -4.87 | 0.907 | inactive
eg | 1 | 0.618 | 0.0738 | -7.53 | inactive
eg | 2 | -1.55 | -1.49 | -1.08 | inactive
Gtpx | 1 | -0.98 | -1.66 | 0.0756 | inactive
Gtpx | 2 | -1.62 | -1.03 | -0.542 | inactive
CG1648 | 1 | 0.303 | -5.84 | -0.284 | inactive
CG1648 | 2 | -0.564 | 0.68 | -1.31 | inactive
CG4570 | 1 | 0.488 | 0.38 | -0.69 | inactive
CG11309 | 1 | -2.08 | -0.628 | -1.7 | inactive
CG11309 | 2 | 0.47 | -2.33 | -0.578 | inactive
mi | 1 | 0.893 | 1.65 | 0.0502 | inactive
mi | 2 | -0.164 | 0.524 | -4.45 | inactive
CG13837 | 1 | -3.95 | 1.23 | 1.87 | inactive
CG9166 | 1 | -1.25 | 0.603 | 0.45 | inactive
mio | 1 | 0.0684 | 0.934 | 0.0346 | inactive
mio | 2 | -0.0346 | 0.211 | -0.603 | inactive
CG34185 | 1 | 1.1 | 0.378 | -3.8 | inactive
CG4572 | 1 | 0.288 | -0.426 | -0.872 | inactive
CheB38c | 1 | 0.41 | 0.947 | 0.841 | inactive
CG8611 | 1 | -2.36 | -5.39 | 0.591 | active
CG8611 | 2 | -4.25 | 0.572 | -0.293 | inactive
Rpn11 | 1 | 1.94 | 2.85 | 0.839 | active
Sil1 | 1 | -5.59 | -0.171 | -6.28 | active
Piezo | 1 | -3.59 | -7.26 | 0.834 | active
Piezo | 2 | 1.01 | -0.0178 | 1.34 | inactive
Rcd2 | 1 | -0.628 | 0.0346 | -0.101 | inactive
pre-mod(mdg4)-AD + pre-mod(mdg4)-X + pre-mod(mdg4)-W + 3 more | 1 | -0.138 | 0.182 | -0.682 | inactive
